Results taken from patent US20050020582A1 (priority 2001, published 2005).

Target: protease resistant PrP^Sc (Mus musculus, UniProt P04925)
Details: ScN2a cells; for PrP^Sc inhibition potency compared with quinacrine: FIG. 3; for anti-PrP^Sc effect (inhibition of PrP^Sc formation or accumulation): a week of treatment, in the range tested

SMILES	PrP^Sc inhibition potency compared with quinacrine	anti-PrP^Sc effect (inhibition of PrP^Sc formation or accumulation)	other results
CCN(CC)CCCC(C)Nc1ccnc2cc(Cl)ccc12 (stereo not shown)	did not inhibit PrP^Sc at the same potency as quinacrine		
CCN(CC)CCCC(C)Nc1cc(OC)cc2cccnc12 (stereo not shown)	did not inhibit PrP^Sc at the same potency as quinacrine		
CN(C)c1ccc2nc3ccc(=[N+](C)C)cc-3sc2c1		did not exhibit any anti-PrP^Sc effects	
CN(C)CCCN1c2ccccc2Sc2ccc(Cl)cc21 [chlorpromazine]			amount of PrP^Sc diminished (2 μM dose): 50%; PrP^Sc inhibition after seven days of treatment (seven days, FIG. 2a): substantial effect; PrP^Sc inhibition after two days of treatment (two days, FIG. 2a): weak effect
O=C(CCCN1CCC(O)(c2ccc(Cl)cc2)CC1)c1ccc(F)cc1		did not inhibit PrP^Sc formation or accumulation	
